Measured values reported in patent US20070072177A1 (CRUCELL HOLLAND B V, published 2007).

T1: glycoprotein of rabies virus strain CVS-11 (rabies virus strain CVS-11, UniProt O92284 20-524)
T1 sequence: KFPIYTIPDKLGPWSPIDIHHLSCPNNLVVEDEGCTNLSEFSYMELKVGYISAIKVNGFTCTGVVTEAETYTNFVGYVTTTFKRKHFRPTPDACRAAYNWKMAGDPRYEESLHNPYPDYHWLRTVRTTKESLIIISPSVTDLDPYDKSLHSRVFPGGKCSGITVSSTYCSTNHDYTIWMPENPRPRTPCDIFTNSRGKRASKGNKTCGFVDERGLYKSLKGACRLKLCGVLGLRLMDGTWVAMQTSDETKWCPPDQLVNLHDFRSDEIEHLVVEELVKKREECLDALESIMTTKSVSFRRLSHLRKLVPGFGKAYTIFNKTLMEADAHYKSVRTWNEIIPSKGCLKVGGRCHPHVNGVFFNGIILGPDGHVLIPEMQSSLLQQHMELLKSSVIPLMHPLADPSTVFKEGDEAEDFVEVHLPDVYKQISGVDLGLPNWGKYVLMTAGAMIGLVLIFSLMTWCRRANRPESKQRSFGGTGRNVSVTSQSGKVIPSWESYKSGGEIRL


How the values were obtained:
[1] = biological target: T1, glycoprotein of rabies virus strain …; experiment: cell-based or functional assay
5% FBS preparation = experiment: phage ELISA on coated 5% FBS, anti-M13-HRP

Row | Binder | 50% endpoint dilution [1] [dilution] | OD 492 nm (5% FBS preparation) [OD 492 nm]
1 | SC04-026 (scFv) scFv: AMAEVQLVESGAEVKKPGESLKISCKGSGYNFPYSWIAWVRQMPGKGLEWMGIIFPGDSDTRYSPPFQGQVTISADNSKSTAYLQWSSLKASDTAMYYCARTSNWNYLDRFDPWGQGTLVTVSSGTGGSGGTGSGTGGSTDVVMTQSPLSLPVTPGEPASISCRSSQSLLHSNGHDYLDWYVQKPGQSPQPLIYLGSDRASGVPDRFSGSGSGTHFTLNISRVEAEDVGVYYCMQSLQTPWTFGQGTKLEIKRAAA | 45 | 0.054
2 | SC04-018 (scFv) scFv: AMAEVQLVESGPGLVRPSGTLSLTCAVSGGSISSSNWWSWVRQPPGKGLEWIGEIYHSGSTNYNPSLKSRVTISVDKSKNQFSLKLSSVTAADTAVYYCARVSVTTGAFNIWGQGTMVTVSSGTGGSGGTGSGTGGSTQPVLTQPLSASGTPGQRVTISCSGDTSNIGSNTVHWYQRLPGTAPKLLIHNNNQRPSGVPDRFSGAKSGTSASLAISGLQSEDEADYFCAAWDDNLNGYVFGTGTKVTVLGAAA | 15 | 0.052
3 | SC04-010 (scFv) scFv: AMAQVQLVQSGGDLVQPGRSLRLSCAASGFTFSSYGMHWVRQAPGKGLEWVADISYDGSNKYYADSVKGRFTISRDNSKNTLYLQMNSLRAEDTAVYYCAKDGLDLTGTIQPFGYWGQGTLVTVSSGTGGSGGTGSGTGGSTDIQMTQSPSSLSASVGDRVTITCRASQGIRNDLGWYQQKPGKAPKLLIYAASSLQSGVPSRFSGSGSGTDFTLTISSLQPEDFATYYCLQDYNYPRTFGQGTKVEIKRAAA | 810 | 0.043
4 | SC04-021 (scFv) scFv: AMAEVQLVESGGGVVQPGRSLRLSCAASGFTFSSYGMHWVRQAPGKGLEWVAVISYDGSSKYYADSVKGRFTISRDNSKNTLYLQMNSLRAEDTAVYYCAKGSVLGDAFDIWGQGTMVTVSSGTGGSGGTGSGTGGSTDIQMTQSPFSLSASVGDRVTITCRASQGIGSSLAWYQQKPGKAPKLLIYAASSLQSGVPSRFSGSGSGTDFTLTISSLQPEDFATYFCLQHHDYPLTFGGGTKLEIKRAAA | 270 | 0.052
5 | SC04-008 (scFv) scFv: AMAQVTLKESGPTLVKPTQTLTLTCTFSGFSLSTSGVGVGWIRQPPGKALEWLARIDWDDDKYYSTSLKTRLTISKDTSKNQVVLTMTNMDPVDTATYYCARMGFTGTYFDYWGQGTLVTVSSGTGGSGGTGSGTGGSTQAVLTQPSSVSVAPGETASVTCGGDNIGSKSVHWYQKKPGQAPVLVVFDDSDRPSGIPERFSGSTSGNTAALTISRVEAGDEADYYCQVWDSSNDHLYVFGPGTQLTVLSAAA | > 10900 | 0.058
6 | SC04-164 (scFv) scFv: AMAEVQLVESGGGVVQPGRSLRLSCAASGFTFSSYGMHWVRQAPGKGLEWVAVISYDGSSKYYADSVKGRFTISRDNSKNTLYLQMNSLRAEDTAVYYCAKGSVLGDAFDIWGQGTMVTVSSGTGGSGGTGSGTGGSTDIQLTQSPSSVSASVGDRVTITCRASQGISSWLAWYQQKPGKAPKLLIYAASSLQSGVPSRFSGSGSGTDFTLTISSLQPEDFATYYCQQANSFPLTFGGGTKVDIKRAAA | 45 | 0.057
7 | scFv SO57 (scFv) scFv: AMAQVQLVQSGAEVKKPGSSVKVSCKASGGTFNRYTVNWVRQAPGQGLEWMGGIIPIFGTANYAQRFQGRLTITADESTSTAYMELSSLRSDDTAVYFCARENLDNSGTYYYFSGWFDPWGQGTLVTVSSGTGGSGGTGSGTGGSTQSALTQPRSVSGSPGQSVTISCTGTSSDIGGYNFVSWYQQHPGKAPKLMIYDATKRPSGVPDRFSGSKSGNTASLTISGLQAEDEADYYCCSYAGDYTPGVVFGGGTKLTVLGAAA |  | 0.055
